Results of unrelated studies side by side (data: NIAID ChemDB).

Common to all: tests on isolated targets; species: HIV; protein: Protease

Blank or dashed fields: not listed here.

structure	changes	endpoint	method	value
Cc1cccc(C)c1OCC(=O)N[C@@H](Cc1ccccc1)[C@H](O)CN(CC(C)C)S(=O)(=O)c1ccc2ncsc2c1		IC50	fluorescence	0.004 µM
CCC(Cc1ccccc1)c1cc(O)c(C(CC)c2ccccc2)c(=O)o1		IC50		<10 µM
CC(C)CN(C[C@@H](O)[C@H](Cc1ccccc1)NC(=O)OCc1ccccc1)S(=O)(=O)c1ccc2nc(N)sc2c1		IC50	fluorescence	0.002 µM
CC(C)(C)NC(=O)[C@@H]1CSCN1C(=O)[C@@H](O)[C@H](Cc1ccccc1)NC(=O)[C@H](CC(F)(F)F)NC(=O)COc1cccc2cnccc12		IC50	HPLC	0.0021 µg/mL
COc1cccc(CN(CC(=O)NCCCC[C@@H](CO)N(CC(C)C)S(=O)(=O)c2ccc(N)cc2)c2ccccc2)c1OC		Ki		0.0016 µM
C=CCOC(=O)N[C@@](C=O)(CCN1CCC[C@H]1C(=O)OC)Cc1ccccc1		IC50	FRET	>1000 µM
CC(C)[C@H](NC(=O)c1ccc2ccccc2n1)C(=O)N[C@@H](Cc1ccccc1)[C@H](O)CN1CC[C@@H](SCc2cccnc2)C[C@H]1C(=O)NC(C)(C)C	PR-L10I L23I M46I I84V	Ki	fluorescence	0.000071 µM
CC(C)CN(C[C@@H](O)[C@H](Cc1ccccc1)NC(=O)OCc1ccccc1)S(=O)(=O)c1ccccc1		IC50	fluorescence	0.006 µM
Cc1cccc(C)c1OCC(=O)N[C@@H](Cc1ccccc1)[C@H](O)CN1CC[C@@H](Sc2ccncc2)C[C@H]1C(=O)NC(C)(C)C	PR-V32I	Ki	fluorescence	0.000083 µM
CC(C)CN(C[C@@H](O)[C@H](Cc1ccccc1)NC(=O)[C@@H](C)CS(C)(=O)=O)S(=O)(=O)c1ccc2nc(N)sc2c1		IC50	fluorescence	0.002 µM
CN(C(=O)COc1cccc2cnccc12)[C@@H](CC(F)(F)F)C(=O)N[C@@H](Cc1ccccc1)[C@H](O)C(=O)N1CSC[C@H]1C(=O)NC(C)(C)C		IC50	HPLC	0.0051 µg/mL
CCCCCCCCCCCCCCCC(=O)N[C@@H](Cc1ccc2ccccc2c1)C(=O)N[C@@H](CCC(=O)O)C(=O)N[C@@H](CC(C)C)C(=O)O		IC50		12.5 µM
CNC(=O)[C@@H](NC(=O)[C@H](OCc1ccccc1)[C@H](O)[C@@H](O)[C@@H](OCc1ccccc1)C(=O)N[C@H]1c2ccccc2C[C@H]1O)C(C)C	PR-G48V	Ki		0.0003 µM
O=C1N(Cc2ccc(CO)cc2)[C@H](COc2ccccc2)[C@H](O)[C@@H](O)[C@@H](COc2ccccc2)N1Cc1ccc(CO)cc1	PR-I84V	Ki	fluorescence	0.0004 µM
Cc1c(N)cccc1C(=O)N[C@@H](Cc1ccccc1)[C@H](O)CN(CC(C)C)S(=O)(=O)c1ccc2nc(N)sc2c1		IC50	fluorescence	0.003 µM

The last 2 rows once more:

structure,changes,endpoint,method,value
O=C1N(Cc2ccc(CO)cc2)[C@H](COc2ccccc2)[C@H](O)[C@@H](O)[C@@H](COc2ccccc2)N1Cc1ccc(CO)cc1,PR-I84V,Ki,fluorescence,0.0004 µM
Cc1c(N)cccc1C(=O)N[C@@H](Cc1ccccc1)[C@H](O)CN(CC(C)C)S(=O)(=O)c1ccc2nc(N)sc2c1,,IC50,fluorescence,0.003 µM

ICn: concentration for n% inhibition. Neighbouring rows are from separate reports.